Potato spindle tuber viroid, loop 15: variant abundance in plants

Reference: Wu et al. 2024, doi:10.1371/journal.ppat.1012142.

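A pool of all variants was put on leaves of three Nicotiana benthamiana plants. Progeny were sequenced from the inoculated region (day 5), the margin of the inoculated leaf (day 10) and systemic leaves (day 12).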

The pool varies loop 15 of the PSTVd intermediate strain in the pattern GGAAACCGNNNNNNC; wild type is GGAAACCGCUACUAC (upper and lower strand joined, each 5' to 3', the first 7 letters being the upper strand, closing pairs included).

Values are reads per thousand in the sample; higher means more abundant, 0 means not found.
Each value is the mean of three plants.
"Pool" is the share in the plasmid pool used as inoculum, on the same scale.
The inoculated region was read from the minus strand, the other sites from the plus strand.

sequence	pool	inoculated region	leaf margin	systemic leaves
GGAAACCGCAUGACC	0.0320	0.136	0.0215	0
GGAAACCGGAUACUC	0.224	0.105	0.00668	0
GGAAACCGAAGUACC	0.240	0.0915	0.00668	0
GGAAACCGAUGCCAC	0.288	0.0796	0.0200	0
GGAAACCGCCCGCCC	0.144	0.0536	0.00742	0
GGAAACCGCGGGUCC	0.208	0.110	0.0128	0
GGAAACCGGAGAGUC	0.0800	0.0974	0.0108	0
GGAAACCGUAUCGAC	0.240	0.121	0.00668	0
GGAAACCGUUAACGC	0.176	0.345	0.0680	0.0161
GGAAACCGGGAAAAC	0.208	0.119	0.00539	0
GGAAACCGAUGCGAC	0.240	0.0795	0.00539	0
GGAAACCGAACAUAC	0.304	0.282	0.138	0.0215
GGAAACCGUCGAGCC	0.208	0.0923	0.00668	0.00537
GGAAACCGUAUUAAC	0.224	0.114	0.0241	0.00504
GGAAACCGGGGGGCC	0.240	0.0729	0.0175	0
GGAAACCGACUUGAC	0.272	0.0743	0	0
GGAAACCGCUCGCAC	0.240	0.0551	0	0
GGAAACCGUUAGAUC	0.272	0.386	0.0754	0.0969
GGAAACCGGACGAGC	0.208	0.130	0.00539	0
GGAAACCGAGUCAAC	0.320	0.151	0	0
GGAAACCGCCCUACC	0.304	0.0982	0	0
GGAAACCGCCCGUCC	0.256	0.261	0.137	0.0587
GGAAACCGUGUUUAC	0.368	0.261	0.136	0.0161
GGAAACCGGUCUUGC	0.304	0.0777	0.00668	0
GGAAACCGUUGGCGC	0.240	0.0613	0.00742	0
GGAAACCGUACUAAC	0.160	0.292	0.0921	0.0107
GGAAACCGGAGACCC	0.208	0.103	0.00742	0
GGAAACCGAAGGGCC	0.256	0.0812	0	0
GGAAACCGGUAUAGC	0.192	0.0847	0.00539	0
GGAAACCGUAGUGAC	0.176	0.0807	0.0134	0
GGAAACCGGAACAUC	0.272	0.0949	0	0
GGAAACCGUGCUUUC	0.240	0.222	0.111	0.0268
GGAAACCGCCUUGGC	0.192	0.232	0.00539	0.00537
GGAAACCGAUCCAAC	0.144	0.0848	0.00539	0
GGAAACCGAGCCGCC	0.112	0.0685	0.0262	0
GGAAACCGUACUGUC	0.224	0.110	0.00539	0
GGAAACCGACCAGCC	0.336	0.0398	0.00668	0
GGAAACCGGAGAUUC	0.160	0.0839	0.0223	0
GGAAACCGAUCACGC	0.208	0.264	0	0.0158
GGAAACCGGGAUAGC	0.160	0.110	0.00668	0.00537
GGAAACCGCUACGCC	0.192	0.202	0.0880	0.0631
GGAAACCGCCUCUCC	0.160	0.0678	0.0187	0.00537

The last 4 entries again:

| sequence | pool | inoculated region | leaf margin | systemic leaves |
|---|---|---|---|---|
| GGAAACCGAUCACGC | 0.208 | 0.264 | 0 | 0.0158 |
| GGAAACCGGGAUAGC | 0.160 | 0.110 | 0.00668 | 0.00537 |
| GGAAACCGCUACGCC | 0.192 | 0.202 | 0.0880 | 0.0631 |
| GGAAACCGCCUCUCC | 0.160 | 0.0678 | 0.0187 | 0.00537 |

The authors trace changes outside the varied positions to PCR and sequencing errors or to mutation in the plant; presence does not show that a variant is infectious alone.
For reference, wild type rose from 33.9 per thousand in the pool to 202, 200, 159 (inoculated region), 724, 746, 710 (leaf margin) and 856, 883, 880 (systemic leaves).
Samples held 43,870 to 66,106 reads, so the smallest values rest on one or two reads.